Pooled drug test results. Numbers come from NIAID ChemDB, via PubChem.

Shared fields: target-level tests; agent: Hepatitis C virus; protein: NS3/NS4A protease; read-out: IC50

Two numbers with a dash give a range or band. ICn: concentration for n% inhibition. Rows are shuffled and stem from different studies. Blank or dashed fields: not listed here.

SMILES | strain or isolate | read by | value
C=CC1C[C@]1(NC(=O)[C@@H]1C[C@@H](Oc2cc(-c3ccccc3)nc3cc(OC)ccc23)CN1C(=O)[C@@H](NC(=O)OC(C)(C)C)C(C)(C)C)C(=O)NS(=O)(=O)c1nc(NC(C)=O)sc1C | BMS |  | <0.1 µM
C=CC1CC1(NC(=O)OC(C)(C)C)C(=O)N1C[C@H](Oc2cc(-c3ccccc3)nc3cc(OC)ccc23)C[C@H]1C(=O)N[C@]1(C(=O)NS(=O)(=O)C2CC2)C[C@H]1C=C | BMS |  | <0.5 µM
C=C[C@H]1C[C@@]1(NC(=O)[C@@H]1C[C@@H](Oc2cc(-c3ccccc3)nc3cc(OC)ccc23)CN1C(=O)[C@@H](NC(=O)OC(C)(C)C)C(C)(C)C)C(=O)NS(=O)(=O)C1([Si](C)(C)C)CC1 | BMS |  | 0.05–0.5 µM
COc1ccc2c(O[C@@H]3C[C@@H](C(=O)NC4(C(=O)NS(=O)(=O)C5CC5)CC4)N(C(=O)[C@@H](NC(=O)OC(C)(C)C)C(C)C)C3)cc(-c3ccccc3)nc2c1 | BMS |  | <0.05 µM
C=CC1CC1(NC(=O)[C@@H]1C[C@@H](OC(=O)Nc2cc(C)ccc2F)CN1C(=O)[C@@H](NC(=O)OC(C)(C)C)C(C)(C)C)C(=O)NS(=O)(=O)C1CC1 | BMS/H77C/J416S |  | <0.1 µM
CSC[C@@H](C=O)NC(=O)[C@H](CC(C)C)NC(=O)[C@@H](NC(=O)[C@H](Cc1ccccc1C)NC(=O)[C@H](CCC(=O)O)NC(=O)[C@H](CC(=O)O)NC(=O)CCC(=O)O)C(C)(C)C |  |  | 0.165 µM
C=CC1CC1(NC(=O)[C@@H]1C[C@@H](Oc2cc(-c3ccccc3)nc3cc(OC)ccc23)CN1C(=O)[C@H](CC1CCCCC1)NC(=O)OC(C)(C)C)C(=O)NS(=O)(=O)C(F)(F)F | BMS |  | <5 µM
C=CC1CC1(NC(=O)[C@@H]1C[C@@H](OC(=O)Nc2sccc2C(=O)OC)CN1C(=O)[C@@H](NC(=O)OC(C)(C)C)C(C)(C)C)C(=O)NS(=O)(=O)C1CC1 | BMS/H77C/J416S |  | <0.1 µM
C=CC1C[C@]1(NC(=O)[C@@H]1C[C@@H](Oc2cc(-c3ccccc3)nc3cc(OC)ccc23)CN1C(=O)[C@@H](NC(=O)OC(C)(C)C)C(C)(C)C)C(=O)NS(=O)(=O)c1ccc(Cl)s1 | BMS |  | <0.1 µM
CCCC1(S(=O)(=O)NC(=O)[C@]2(NC(=O)[C@@H]3C[C@@H](Oc4cc(-c5ccccc5)nc5cc(OC)ccc45)CN3C(=O)[C@@H](NC(=O)OC(C)(C)C)C(C)(C)C)CC2C2CC2)CC1 | BMS |  | <0.05 µM
C=CC1CC1(NC(=O)[C@@H]1C[C@@H](OC(=O)Nc2ccc(F)c(F)c2F)CN1C(=O)[C@@H](NC(=O)OC(C)(C)C)C(C)(C)C)C(=O)NS(=O)(=O)C1CC1 | BMS/H77C/J416S |  | 0.1–1 µM
C=CC1C[C@@]1(NC(=O)[C@@H]1C[C@@H](Oc2cc(-c3nc(C(C)C)cs3)nc3cc(OC)ccc23)CN1C(=O)[C@@H](NC(=O)OC(C)(C)C)C(C)(C)C)C(=O)NS(=O)(=O)C1(CCC)CC1 | BMS |  | <0.05 µM
C#CC[C@@H](C=O)C(=O)[C@H](CCC(=O)O)NC(=O)[C@@H](CCC(=O)O)NC(=O)[C@H](Cc1ccc(Cl)cc1)NC(=O)[C@H](CCC(=O)O)NC(=O)[C@H](CC(=O)O)NC(=O)CCC(=O)O |  |  | 13 µM
C=CC1CC1(NC(=O)[C@@H]1C[C@@H](OC(=O)N2CCc3ccccc32)CN1C(=O)[C@@H](NC(=O)OC(C)(C)C)C(C)(C)C)C(=O)NS(=O)(=O)C1CC1 | BMS/H77C/J416S |  | <0.1 µM
C#CC[C@@H](C=O)C(=O)[C@H](CCC(=O)O)NC(=O)[C@@H](CCC(=O)O)NC(=O)[C@H](Cc1ccccc1C)NC(=O)[C@H](CCC(=O)O)NC(=O)[C@H](CC(=O)O)NC(=O)CCC(=O)O |  |  | 5 µM
CC[C@H]1C[C@@]1(NC(=O)[C@@H]1C[C@@H](Oc2cc(-c3ccccc3)nc3cc(OC)ccc23)CN1C(=O)[C@H](CC1CCCCC1)NC(=O)OC(C)(C)C)C(=O)NS(C)(=O)=O | BMS |  | <5 µM
C=CC1CC1(NC(=O)[C@@H]1C[C@@H](Oc2cc(-c3ccccc3)nc3cc(OC)ccc23)CN1C(=O)[C@@H](NC(=O)OC(C)(C)C)C(C)(C)C)C(=O)NS(=O)(=O)C1(Br)CC1 | BMS |  | <0.05 µM
O=C(Nc1ccc(Br)cc1)c1c(O)cc(O)c([N+](=O)[O-])c1O |  | HPLC | 19.4 µg/mL
C=C[C@H]1C[C@@]1(NC(=O)[C@@H]1C[C@@H](Oc2cc(-c3ccccc3)nc3cc(OC)ccc23)CN1C(=O)[C@@H](NC(=O)OC(C)(C)C)C(C)(C)C)C(=O)NS(=O)(=O)C1(C(=C)C)CC1 | BMS |  | <0.05 µM
C=C[C@@H]1C[C@]1(NC(=O)[C@@H]1C[C@@H](Oc2cc(-c3ccccc3)nc3cc(OC)ccc23)CN1C(=O)[C@@H](NC(=O)OCC1CC1)C(C)(C)C)C(=O)NS(=O)(=O)C1CC1 | BMS |  | <0.05 µM
CCCCCCCNC(=O)c1c(O)cc(O)c([N+](=O)[O-])c1O |  | HPLC | 31.7 µg/mL
C=CC1C[C@]1(NC(=O)[C@@H]1C[C@@H](Oc2cc(-c3ccccc3)nc3cc(OC)ccc23)CN1C(=O)[C@@H](NC(=O)OC(C)(C)C)C(C)(C)C)C(=O)NS(=O)(=O)c1ccc([N+](=O)[O-])s1 | BMS |  | 0.1–1 µM
C=CC1CC1(NC(=O)[C@@H]1C[C@@H](OC(=O)N(C)c2ccccc2)CN1C(=O)[C@@H](NC(=O)OC(C)(C)C)C(C)(C)C)C(=O)NS(=O)(=O)C1CC1 | BMS/H77C/J416S |  | 0.1–1 µM
C=CC1C[C@]1(NC(=O)[C@@H]1C[C@@H](Oc2cc(-c3ccccc3)nc3cc(OC)ccc23)CN1C(=O)[C@@H](NC(=O)OC(C)(C)C)C(C)(C)C)C(=O)NS(=O)(=O)c1ccc(Br)s1 | BMS |  | <0.1 µM
COc1ccc2c(O[C@@H]3C[C@@H](C(=O)N[C@@]4(C(=O)NS(=O)(=O)C5(CC6CC6)CC5)CC45CC5)N(C(=O)[C@@H](NC(=O)OC(C)(C)C)C(C)(C)C)C3)cc(-c3ccccc3)nc2c1 | BMS |  | 0.05–0.5 µM
O=C(Nc1ccc(Oc2ccccc2)cc1)c1c(O)cc(O)c([N+](=O)[O-])c1O |  | HPLC | 8.5 µg/mL
C=C[C@H]1C[C@@]1(NC(=O)[C@@H]1C[C@@H](Oc2ccnc3cc(Cl)ccc23)CN1C(=O)[C@@H](NC(=O)OC1CCCC1)C(C)(C)C)C(=O)NS(=O)(=O)C1(CCCC)CC1 | BMS |  | <0.05 µM
COc1ccc2c(O[C@@H]3C[C@@H](C(=O)NC4(C(=O)NS(=O)(=O)C5CC5)CCC4)N(C(=O)[C@@H](NC(=O)OC(C)(C)C)C(C)(C)C)C3)cc(-c3ccccc3)nc2c1 | BMS |  | <0.05 µM
CC[C@H](C)[C@@H](NC(=O)[C@H](CCSC)NC(=O)[C@H](CCC(=O)O)NC(=O)[C@H](CC(=O)O)NC(=O)CCC(=O)O)C(=O)N[C@@H](CCC(=O)O)C(=O)N[C@H](C=O)CC(F)(F)F |  |  | 3 µM
C=C[C@@H]1C[C@]1(NC(=O)[C@@H]1C[C@@H](Oc2cc(-c3ccccc3)nc3cc(OC)ccc23)CN1C(=O)[C@@H](NC(=O)OC(C)(C)C)C(C)(C)C)C(=O)NS(=O)(=O)c1ccccc1 | BMS |  | <0.05 µM
COc1ccc(NC(=O)c2c(O)cc(O)c([N+](=O)[O-])c2O)cc1OC |  | HPLC | 52.2 µg/mL